In the supplement of paper PMC9931576:
Human monoclonal antibodies against the spike receptor-binding domain (heavy:light variable regions). IC50 against pseudoviruses bearing the spike of naturally observed variants; lower = stronger; >10 µg/ml means not reached at the top dose. No active / inactive call. The stated detection limit is 0.0005 µg/ml; values near or below 0.001 µg/ml lie at the floor of the assay.

B1: BD56-201 (protein)
chain 1: QITLKESGPTLVKPTQTLTLTCTFSGFSLTTSGVSVGWIRQPPGEALEWLALIFWDDDKRYSPSLKSRLTITKDPSKNQIVLTMTNMGPVDTATYFCAHSAYSTSWYDHAFDFWGQGSLVTVSS
chain 2: QSVLTQPPSVSEAPRQRVTISCSGGSSNIGHNAVNWYQQLPGKAPKLLIYYDDLRPSGVSDRFSGSKSGTSASLAISGLQSEDEADYYCAAWDDSLNGPVFGGGTKLTVL
B2: BD56-215 (protein)
chain 1: QVQLVQSGAEVKKPGASVKVSCKASGYTFTSYYMHWVRQAPGQGLEWMGVINPSGGSTRYAQNFLGRVIMTRDTSTSTVYMELSSLRSEDTAMYYCARPNGSPDDYFDYWGLGTLVTVSS
chain 2: SYVLTQPPSVSVAPGKTARITCGGNNIGSKSVHWYQQKPGQAPVLVIYYDSDRPSGIPERFSGSNSGNTATLTISRVEAGDEADYYCQVWDSSSLYVFGTGTRVTVL
B3: BD56-216 (protein)
chain 1: QVQLVESEGGVVQPGRSLRLSCAASGFSFSIYAMHWVRQAPDKGLEWVAVISYDGSNKYYADSAKGRFTISRDNSKNTLFLQMNSLRAEDTAVYYCARDSQTLAAALVNSGFDYWGQGTLVTVSS
chain 2: SYVLTQPPSVSVAPGKTARITCGGNSIGSKNVHWYQQKPGQAPVLVIYYDSDRPAGIPERFSGSNSGNTATLTISRVEAGDEADYYCQVWDRGVEFGGGTKLTVL
B4: BD56-221 (protein)
chain 1: QLQLQESGPGLVKPSETLSLTCTVSGGSISSSNFYWGWIRQPPGKGLEWIGSIYYSGRTYYTPSLKSRVTISVDTSKNQFSLKLSSVTAADTAIYYCARQPRQLSSGWYYYAMDVWGQGTTVAVSS
chain 2: QSALTQPASVSGSPGQSITISCTGTSSDVGSYNLVSWYQQHPGKAPKLLLYEGSKRPSGVSDRFSGSKSGNTASLTISGLQAEDEADYYCCSYAGLWIFGGGTKLTVL
B5: BD56-200 (protein)
chain 1: QLQLQESGPGLVKPSETLSLTCTVSGDSISRSFYYWGWIRQPPGKGLEWIGNIHNGGSTYYNPSLKSRVTMSIDTSKNRFSLKLSSVTATDTAVYYCARPTGFPDFGFDPWGPGTLVIVSS
chain 2: QSVLTQPPSASGTPGQRVTISCSGSSSNIGSNSVNWYQQLPGTAPKLLIYSNNQRPSGIPDRFSGSKSGTSASLALGGLQSEDEADYYCAAWDDSLNVWVFGGGTKLTVL
B6: BD56-211 (protein)
chain 1: QVQLVESGGGVVQPERSLRLSCAASGFTFSKYAMHWVRQAPGKGLEWVAVIWYDGSNEYYGDSVKGRFTISRDNSKNTLYLQMNSLRAEDTAVYYCAKSGYSYASEDYYFDYWGQGTLVTVSS
chain 2: DIQMTQSPSSLSASVGDRVTITCQASQDISNHLHWYQHKPGKAPKLLIYDASNLETGVPSRFSGSGSGTDFTITISSLQPEDIATYYCQQYVNLPLTFGGGTKVEIK
B7: DH1154 (protein)
chain 1: EVQLVESGGGLIQPGGSLRLSCAASGFTVSSNYMSWVRQAPGKGLEWVSVIYSGGSTFYADSVKGRFTISRDNSKNTLYLQMNSLGAEDTAVYYCARDLGSRGAFDIWGQGTMVTVSS
chain 2: DIQLTQSPSFLSASVGDRVTITCRASQGISSYLAWYQQKPGKAPKLLIYAASTLQSGVPSRFSGSGSGTEFTLTISSLQPEDFATYYCQQLNSDPVPFGGGTKVEIK
B8: BD56-213 (protein)
chain 1: EVQLVQSGAEVKKPGESLKISCKGFGYSFISYWTAWVRQRPGKGLEWMGIIYPGDSDTRYSPSFQGQVTISADKSISTAYLQWSSLEASDTAMYYCVRYTSVPNGWFDPWGQGTLVTVSS
chain 2: QSVLTQPPSASGTPGQRVTISCSGSSSNIGTNTVNWYQHLPGTAPKLLIYNNNQRPSGVPDRFSGSKSGTSASLAISGLQSEDEADYYCAAWDDSLSGVFGGGTKLTVL
B9: BD56-220 (protein)
chain 1: EVQLVESGGGLVKPGGSLRLSCAASGFTFSGYSMDWVRQAPGKGLEWVSSISGISNHIYYADSVKGRFTISRDNAKNSMYLQMNSLRTEDTAIYYCARDAGTARVEANSYYGMDVWGQGTTVTVSS
chain 2: SYVLTQPPSVSVTPGQTARITCGGDGIGGKSVHWYQQKPGQAPVLVIYYDRDRPSGIPERFSGSNSGITATLTISRVEAGDEADYYCQVWDSSSHHWVFGGGTKLTVL
B10: BD56-209 (protein)
chain 1: EVQLVQSGAEVKKAGEALKISCKCSGYFFISNWIAWVRQMPGKGLEWMGIIFPGDSDTTYSPSFQGQVTISVDKSITTAYLQWTSLKASDTAMYYCARRGSVWDLDFWGQGTLVTVSP
chain 2: QSVLTQPPSASGTPGQTVIISCSGSSSNIGGNPVNWYRQLPGTAPKLLIHNNNQRPAGVPDRFSGSKSGTSASLAISGLQSDDEAHYYCAPWDDRLNGWVFGGGTKLTVL
B11: BD56-210 (protein)
chain 1: VQLVQSGAEVKKPGASVKISCKASGYTFSNSYLHWVRQAPGQGLEWMGVINPSAGSTTYARMFQGRVTMTSDTSTSTIYMELSSLRFEDTAVYYCARDLNYIPSFSWFDTWGQGTLVTVSS
chain 2: EIVLTQSPATLSLSPGERATLSCRASQSVSSYVAWYQQKPGQAPRLLIYDASNRATGIPARFSGSGSGTDFTLTISGLEPEDFAVYYCQHRSNWLMYTFGQGTKLEIK
B12: BD56-205 (protein)
chain 1: QVQLVQSGTEVKKPGASVKVSCKASGYTFTSYGITWVRQAPGQGLEWMGWISAYNGNTNYAQKFQGRVTMTTDTSTSTAYMELRSLRSDDTAVYYCARDYDYVWGSYPTDFEWWGQGTLVTVSS
chain 2: QSALTQPASVSGSPGQSITISCTGTSGDVGSYNLVSWYQQHPGKAPKLMIYEISKRPSGVSNRFSGSKSGKRASLTISGLQAEDEADYYCCSYEGSSPFAHWVFGGGTKLTVL

Molecular target: SARS-CoV-2 Omicron BA.1 spike pseudovirus
Assay: pseudovirus neutralization IC50; higher = weaker neutralization
Experimental: (§1)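 Single-round VSV luciferase pseudovirus mixed with antibody dilutions for 1 h and put on Huh-7 cells for about a day; IC50 from the dose curve.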

First: B1
Second: B2
The “pseudovirus neutralization IC50” value of the first is lower: 4.68 µg/mL for the first, greater than 10 µg/mL for the second.

B3 and B4 cannot be ordered by “pseudovirus neutralization IC50” value: greater than 10 µg/mL for the first, greater than 10 µg/mL for the second.

B5 and B6 cannot be ordered by “pseudovirus neutralization IC50” value: greater than 10 µg/mL for the first, greater than 10 µg/mL for the second.

Going from B7 to B8, the “pseudovirus neutralization IC50” value falls from greater than 10 µg/mL to 0.776 µg/mL.

Compared with B9, B10 is 2.1-fold lower in “pseudovirus neutralization IC50” value: 1.37 µg/mL for the first, 0.641 µg/mL for the second.

Going from B11 to B12, the “pseudovirus neutralization IC50” value falls from greater than 10 µg/mL to 0.468 µg/mL.

Molecular target: SARS-CoV-2 Omicron BA.2 spike pseudovirus
Assay: as above
Experimental: as §1

Going from B1 to B2, the “pseudovirus neutralization IC50” value rises from 4.71 µg/mL to greater than 10 µg/mL.

B3 and B4 cannot be ordered by “pseudovirus neutralization IC50” value: greater than 10 µg/mL for the first, greater than 10 µg/mL for the second.

B5 and B6 cannot be ordered by “pseudovirus neutralization IC50” value: greater than 10 µg/mL for the first, greater than 10 µg/mL for the second.

Compared with B7, B8 is lower in “pseudovirus neutralization IC50” value: greater than 10 µg/mL for the first, 1.12 µg/mL for the second.

Compared with B9, B10 is 2.4-fold lower in “pseudovirus neutralization IC50” value: 2.8 µg/mL for the first, 1.17 µg/mL for the second.

First: B11
Second: B12
The “pseudovirus neutralization IC50” value of the first is higher: greater than 10 µg/mL for the first, 0.688 µg/mL for the second.

Molecular target: SARS-CoV-2 Omicron BA.2.75 spike pseudovirus
Assay: as above
Experimental: as §1

Compared with B1, B2 is higher in “pseudovirus neutralization IC50” value: 4.47 µg/mL for the first, greater than 10 µg/mL for the second.

B3 and B4 cannot be ordered by “pseudovirus neutralization IC50” value: greater than 10 µg/mL for the first, greater than 10 µg/mL for the second.

B5 and B6 cannot be ordered by “pseudovirus neutralization IC50” value: greater than 10 µg/mL for the first, greater than 10 µg/mL for the second.

Compared with B7, B8 is lower in “pseudovirus neutralization IC50” value: greater than 10 µg/mL for the first, 0.948 µg/mL for the second.

Going from B9 to B10, the “pseudovirus neutralization IC50” value falls from 5.19 µg/mL to 0.586 µg/mL (8.9-fold).

First: B11
Second: B12
The “pseudovirus neutralization IC50” value of the first is higher: greater than 10 µg/mL for the first, 1.04 µg/mL for the second.

Molecular target: SARS-CoV-2 Omicron BA.5 spike pseudovirus
Assay: as above
Experimental: as §1

Compared with B1, B2 is higher in “pseudovirus neutralization IC50” value: 4.54 µg/mL for the first, greater than 10 µg/mL for the second.

B3 and B4 cannot be ordered by “pseudovirus neutralization IC50” value: greater than 10 µg/mL for the first, greater than 10 µg/mL for the second.

B5 and B6 cannot be ordered by “pseudovirus neutralization IC50” value: greater than 10 µg/mL for the first, greater than 10 µg/mL for the second.

Compared with B7, B8 is lower in “pseudovirus neutralization IC50” value: greater than 10 µg/mL for the first, 0.8 µg/mL for the second.

First: B9
Second: B10
The “pseudovirus neutralization IC50” value of the first is 2.7-fold higher: 2.5 µg/mL for the first, 0.911 µg/mL for the second.

Compared with B11, B12 is lower in “pseudovirus neutralization IC50” value: greater than 10 µg/mL for the first, 0.461 µg/mL for the second.

Molecular target: SARS-CoV-2 Omicron BQ.1.1 spike pseudovirus
Assay: as above
Experimental: as §1

Compared with B1, B2 is higher in “pseudovirus neutralization IC50” value: 5.18 µg/mL for the first, greater than 10 µg/mL for the second.

B3 and B4 cannot be ordered by “pseudovirus neutralization IC50” value: greater than 10 µg/mL for the first, greater than 10 µg/mL for the second.

B5 and B6 cannot be ordered by “pseudovirus neutralization IC50” value: greater than 10 µg/mL for the first, greater than 10 µg/mL for the second.

Compared with B7, B8 is lower in “pseudovirus neutralization IC50” value: greater than 10 µg/mL for the first, 0.637 µg/mL for the second.

Compared with B9, B10 is 7.4-fold lower in “pseudovirus neutralization IC50” value: 4.71 µg/mL for the first, 0.634 µg/mL for the second.

Compared with B11, B12 is lower in “pseudovirus neutralization IC50” value: greater than 10 µg/mL for the first, 2.77 µg/mL for the second.

Molecular target: SARS-CoV-2 Omicron XBB spike pseudovirus
Assay: as above
Experimental: as §1

Compared with B1, B2 is higher in “pseudovirus neutralization IC50” value: 5.81 µg/mL for the first, greater than 10 µg/mL for the second.

B3 and B4 cannot be ordered by “pseudovirus neutralization IC50” value: greater than 10 µg/mL for the first, greater than 10 µg/mL for the second.

B5 and B6 cannot be ordered by “pseudovirus neutralization IC50” value: greater than 10 µg/mL for the first, greater than 10 µg/mL for the second.

Going from B7 to B8, the “pseudovirus neutralization IC50” value falls from greater than 10 µg/mL to 1.69 µg/mL.

Going from B9 to B10, the “pseudovirus neutralization IC50” value falls from 5.2 µg/mL to 1.65 µg/mL (3.2-fold).

First: B11
Second: B12
The “pseudovirus neutralization IC50” value of the first is higher: greater than 10 µg/mL for the first, 1.61 µg/mL for the second.

Molecular target: SARS-CoV-2 early D614G spike pseudovirus
Assay: as above
Experimental: as §1

B1 and B2 are within 1.5-fold of each other in “pseudovirus neutralization IC50” value: 4.47 µg/mL for the first, 5.93 µg/mL for the second.

B3 and B4 cannot be ordered by “pseudovirus neutralization IC50” value: greater than 10 µg/mL for the first, greater than 10 µg/mL for the second.

B5 and B6 cannot be ordered by “pseudovirus neutralization IC50” value: greater than 10 µg/mL for the first, greater than 10 µg/mL for the second.

Going from B7 to B8, the “pseudovirus neutralization IC50” value rises from 0.0847 µg/mL to 1.56 µg/mL (18-fold).

Compared with B9, B10 is 4.1-fold lower in “pseudovirus neutralization IC50” value: 4.91 µg/mL for the first, 1.2 µg/mL for the second.

Going from B11 to B12, the “pseudovirus neutralization IC50” value falls from 8.33 µg/mL to 0.859 µg/mL (9.7-fold).
